# Measurements from PMC10508830 (Antiviral research, 2023).
# Biological target: NA of A/Alabama/03/2020 A(H1N1)pdm09 (H275Y) (Influenza A virus, UniProt A0A0X9QTS2, H275Y)
# Format: biochemical
substance,measurement,value
oseltamivir carboxylate,IC50 fold-change,229.67 ± 25.29 (1351) fold
